RC index of single-base changes in HIV-1 RT

Source: Al-Mawsawi et al. 2014 (doi:10.1186/s12977-014-0124-6), supplementary data.

Protein: RT of HIV-1 NL4-3, numbered from its first residue.
Effects on overlapping genes or RNA elements are not listed.

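Random point mutant libraries of HIV-1 NL4-3, one for each of seven fragments, were passaged in CEM T lymphocytes. Sequencing gave the RC index: frequency after two rounds over frequency in the input plasmid.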

RC index: lower means poorer replication; rough cut-offs are 0.1 (lethal) and 0.2 (tolerated). A change reads original residue, position, new residue. Input reads are the counts in the plasmid library.

F77L (base C2780A, input reads 165) gave 0.134. For T7I (base C2569T, input reads 552) the result was 0.0621. For K64R (base A2740G, input reads 172) the result was 0.158. For Q407H (base A3770C, input reads 126) the result was 0.0421. With D511V (base A4081T, input reads 245) the assay gave 0.0134. With D218N (base G3201A, input reads 196) the assay gave 0.316. I521R (base T4111G, input reads 39) read 0.0420. K122N (base A2915C, input reads 91) gave 0.0229.

With I393L (base A3726T, input reads 467) the assay gave 0.0682. K70R (base A2758G, input reads 238) read 0.0143. For I47V (base A2688G, input reads 199) the result was 0.0775. With K65R (base A2743G, input reads 263) the assay gave 0.0583. For V292A (base T3424C, input reads 224) the result was 0.0142. With V536E (base T4156A, input reads 239) the assay gave 0.0274. D443N (base G3876A, input reads 170) gave 0.590. For D185Y (base G3102T, input reads 177) the result was 0.0849.

For E138V (base A2962T, input reads 365) the result was 0.0200. For P217Q (base C3199A, input reads 104) the result was 0.181. With E370V (base A3658T, input reads 172) the assay gave 0.123. With D17E (base T2600G, input reads 81) the assay gave 0.0526. With E514K (base G4089A, input reads 261) the assay gave 0.722. With W402C (base G3755C, input reads 37) the assay gave 0.215. With G335V (base G3553T, input reads 83) the assay gave 0.210. For L26S (base T2626C, input reads 506) the result was 0.0295.

G152V (base G3004T, input reads 139) read 0.112. For F116Y (base T2896A, input reads 214) the result was 0.0243. For K385N (base G3704C, input reads 42) the result was 0.190. I2V (base A2553G, input reads 364) gave 0.0471. For K374T (base A3670C, input reads 146) the result was 0.0182. For N447H (base A3888C, input reads 40) the result was 0.0913. Q367H (base A3650T, input reads 264) gave 0.0402. K424E (base A3819G, input reads 290) gave 0.0189.

With N54D (base A2709G, input reads 507) the assay gave 0.0342. H198R (base A3142G, input reads 297) read 0.0443. A554P (base G4209C, input reads 119) read 0.0551. With Y146C (base A2986G, input reads 223) the assay gave 0.0928. For L289Q (base T3415A, input reads 246) the result was 0.0193. T419A (base A3804G, input reads 148) read 0.0863. With F61L (base T2730C, input reads 88) the assay gave 0.0774. K219R (base A3205G, input reads 220) read 0.0342.

V90F (base G2817T, input reads 156) read 0.0327. N306S (base A3466G, input reads 145) read 0.0328. With F160I (base T3027A, input reads 408) the assay gave 0.0634. D192Y (base G3123T, input reads 149) read 0.353. With K385R (base A3703G, input reads 189) the assay gave 0.0843. With A437T (base G3858A, input reads 302) the assay gave 0.0786. With I326T (base T3526C, input reads 180) the assay gave 0.129. I542S (base T4174G, input reads 36) gave 0.137.

Q207R (base A3169G, input reads 391) gave 0.0865. Q500H (base A4049T, input reads 407) gave 0.0374. For Q475H (base G3974T, input reads 184) the result was 0.0620. For W401R (base T3750C, input reads 301) the result was 0.0705. With V10E (base T2578A, input reads 166) the assay gave 0.0385. L486F (base G4007C, input reads 182) gave 0.188. Y532N (base T4143A, input reads 278) read 0.0177. For P387H (base C3709A, input reads 337) the result was 0.126.

L303P (base T3457C, input reads 218) read 0.0218. T296K (base C3436A, input reads 85) read 0.168. With I5N (base T2563A, input reads 718) the assay gave 0.0409. I375V (base A3672G, input reads 262) gave 0.0304. With N136D (base A2955G, input reads 157) the assay gave 0.0398. For D364E (base T3641A, input reads 212) the result was 0.0548. I31K (base T2641A, input reads 780) read 0.926. Q102H (base G2855T, input reads 118) read 0.0794.

I270S (base T3358G, input reads 82) read 0.0549. Q102K (base C2853A, input reads 54) read 0.0964. D471V (base A3961T, input reads 240) gave 0.0317. G196V (base G3136T, input reads 239) gave 0.0786. For V21D (base T2611A, input reads 403) the result was 0.0635. For Q197K (base C3138A, input reads 126) the result was 0.0746. With P226L (base C3226T, input reads 331) the assay gave 0.0568. D177V (base A3079T, input reads 297) read 0.0465.

D17G (base A2599G, input reads 598) gave 0.103.

The opening 8 entries, copied out:

change	base	input reads	RC
F77L	C2780A	165	0.134
T7I	C2569T	552	0.0621
K64R	A2740G	172	0.158
Q407H	A3770C	126	0.0421
D511V	A4081T	245	0.0134
D218N	G3201A	196	0.316
I521R	T4111G	39	0.0420
K122N	A2915C	91	0.0229

The authors read an index above 1 as above wild type (1.9% of all changes in the genome). Base changes are numbered along pNL4-3. Clones carried about five changes per kilobase, which can drag down the index of neutral changes.